# PubChem BioAssay AID1224833, University of Georgia – 2016
# Screen: 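Human genes whose knock-down alters rotavirus replication in monkey cells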 (primary screen)
# Cell system: monkey MA104 kidney cells
# Knock-down reagent: siRNA pool against human genes, 50 nM
# Duration: 48 h knock-down before infection; read 24 h after infection
# Conditions: infection with rotavirus strain RV3 two days after transfection; infectious dose for this stage not given
# Detection: 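Rotavirus antigen per well by fluorescent immunoassay, normalised to non-targeting control wells on each plate and given as a standard z-score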
# Scale: z-score vs non-targeting control: higher = more rotavirus replication than with non-targeting control
# Rule for the call: In these data the active calls have z-score vs non-targeting control at about -1 or lower, or at about 1 or higher
# Meaning of the calls: active = z-score beyond 1 either way; inactive = z-score within 1 of zero
# This is one part, drawn at random, of about 12,000 deposited reagents. Over the whole deposit, about 5,600 (46%) are marked active. 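Active calls cover z-scores past 1 in both directions, so they include lowered as well as raised rotavirus replication.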
gene,PubChem SID,z-score vs non-targeting control,activity call
SCGB1A1 (secretoglobin family 1A member 1),SID329575759,-0.371,inactive
TNRC18 (trinucleotide repeat containing 18),SID329581672,0.942,inactive
CABIN1 (calcineurin binding protein 1),SID329578037,0.402,inactive
NUCB1 (nucleobindin 1),SID329574680,-1.04,active
LTBP3 (latent transforming growth factor beta binding protein 3),SID329574341,0.0717,inactive
PKHD1 (PKHD1 ciliary IPT domain containing fibrocystin/polyductin),SID329574840,-0.577,inactive
OR51G2 (olfactory receptor family 51 subfamily G member 2),SID329581285,-0.342,inactive
OR5F1 (olfactory receptor family 5 subfamily F member 1),SID329584029,-0.596,inactive
DDX3Y (DEAD-box helicase 3 Y-linked),SID329576217,-2.15,active
ALAS1 (5'-aminolevulinate synthase 1),SID329572736,1.72,active
"RAB5A (RAB5A, member RAS oncogene family)",SID329575044,0.644,inactive
ANTXR1 (ANTXR cell adhesion molecule 1),SID329581534,-1.07,active
ZNF669 (zinc finger protein 669),SID329581046,1.58,active
PRR4 (proline rich 4),SID329577626,0.121,inactive
PPP6R1 (protein phosphatase 6 regulatory subunit 1),SID329577691,-1.07,active
ENTPD5 (ectonucleoside triphosphate diphosphohydrolase 5),SID329573082,-1.19,active
ADAMTS4 (ADAM metallopeptidase with thrombospondin type 1 motif 4),SID329576630,0.988,inactive
ZFP2 (ZFP2 zinc finger protein),SID329581139,-1.37,active
EXOSC1 (exosome component 1),SID329578854,0.714,inactive
RPS27A (ribosomal protein S27a),SID329575204,-4.02,active
GALNT13 (polypeptide N-acetylgalactosaminyltransferase 13),SID329582230,2.19,active
FAM174A (family with sequence similarity 174 member A),SID329584143,-0.778,inactive
DET1 (DET1 partner of COP1 E3 ubiquitin ligase),SID329579551,-1.62,active
SERPINI2 (serpin family I member 2),SID329574829,-1.24,active
CDYL2 (chromodomain Y like 2),SID329582484,0.743,inactive
OGDH (oxoglutarate dehydrogenase),SID329574695,1.3,active
ZXDC (ZXD family zinc finger C),SID329580877,-1.41,active
HOMER3 (homer scaffold protein 3),SID329576602,1.28,active
OR6C68 (olfactory receptor family 6 subfamily C member 68),SID329584524,-0.417,inactive
DDX55 (DEAD-box helicase 55),SID329580353,0.511,inactive
PDE2A (phosphodiesterase 2A),SID329574774,1.86,active
"PCDHAC2 (protocadherin alpha subfamily C, 2)",SID329579984,1.12,active
ZNF585A (zinc finger protein 585A),SID329583382,-1.76,active
ZFYVE19 (zinc finger FYVE-type containing 19),SID329581781,-0.984,inactive
AARD (alanine and arginine rich domain containing protein),SID329584594,0.848,inactive
HIF1A (hypoxia inducible factor 1 subunit alpha),SID329573959,-1.16,active
CCNB3 (cyclin B3),SID329581852,-0.636,inactive
CENPP (centromere protein P),SID329584499,-0.922,inactive
VOPP1 (VOPP1 WW domain binding protein),SID329581311,1.43,active
TMEM123 (transmembrane protein 123),SID329582249,0.376,inactive
GLIPR1L1 (GLIPR1 like 1),SID329583752,-0.999,inactive
TGFB2 (transforming growth factor beta 2),SID329575625,1.01,active
SRP14 (signal recognition particle 14),SID329575483,0.328,inactive
PF4 (platelet factor 4),SID329574804,-0.886,inactive
HSD3B1,SID329574047,1.68,active
AMELY (amelogenin Y-linked),SID329572755,0.467,inactive
ZNF248 (zinc finger protein 248),SID329580204,-0.625,inactive
PCDHB4 (protocadherin beta 4),SID329579981,-0.183,inactive
"PNPLA7 (patatin like domain 7, lysophospholipase)",SID329584261,0.871,inactive
OR2T1 (olfactory receptor family 2 subfamily T member 1),SID329578436,-0.809,inactive
ERAP1 (endoplasmic reticulum aminopeptidase 1),SID329579197,1.63,active
CSE1L (chromosome segregation 1 like),SID329573277,-1.78,active
SNRPB2 (small nuclear ribonucleoprotein polypeptide B2),SID329575418,-1.19,active
GALNT10 (polypeptide N-acetylgalactosaminyltransferase 10),SID329579751,-1.41,active
DENND1B (DENN domain containing 1B),SID329583243,0.615,inactive
ELOB (elongin B),SID329575578,-1.96,active
SPATC1L (spermatogenesis and centriole associated 1 like),SID329581547,-0.326,inactive
CYP2C8 (cytochrome P450 family 2 subfamily C member 8),SID329573338,-1.73,active
FAM78B (family with sequence similarity 78 member B),SID329582991,-2.42,active
CA1 (carbonic anhydrase 1),SID329572980,-1.17,active
SYTL5 (synaptotagmin like 5),SID329582143,0.547,inactive
PYGO1 (pygopus family PHD finger 1),SID329578315,0.746,inactive
SLC9D1,SID329579513,-0.293,inactive
CPEB4 (cytoplasmic polyadenylation element binding protein 4),SID329581207,1.18,active
CD63 (CD63 molecule),SID329573090,-0.368,inactive
CASKIN1 (CASK interacting protein 1),SID329580270,1.81,active
TAF4 (TATA-box binding protein associated factor 4),SID329575550,0.517,inactive
"SEC22A (SEC22 homolog A, vesicle trafficking protein)",SID329578451,-0.188,inactive
EDEM2 (ER degradation enhancing alpha-mannosidase like protein 2),SID329579843,-1.1,active
COLGALT1 (collagen beta(1-O)galactosyltransferase 1),SID329580968,-0.668,inactive
STXBP6 (syntaxin binding protein 6),SID329578652,-0.665,inactive
HSD17B7 (hydroxysteroid 17-beta dehydrogenase 7),SID329579083,-1.75,active
LRP10 (LDL receptor related protein 10),SID329578274,-0.609,inactive
DBP (D-box binding PAR bZIP transcription factor),SID329573367,-0.594,inactive
RTL4 (retrotransposon Gag like 4),SID329584082,1.02,active
PIWIL1 (piwi like RNA-mediated gene silencing 1),SID329576510,2.03,active
ZSCAN1 (zinc finger and SCAN domain containing 1),SID329583878,0.0846,inactive
ZNF569 (zinc finger protein 569),SID329582972,0.63,inactive
PCDHB6 (protocadherin beta 6),SID329579980,-0.0598,inactive
SLAMF8 (SLAM family member 8),SID329580059,-1.99,active
NKIRAS1 (NFKB inhibitor interacting Ras like 1),SID329578601,-0.837,inactive
HSP90AB1 (heat shock protein 90 alpha family class B member 1),SID329574064,0.868,inactive
CDR2 (cerebellar degeneration related protein 2),SID329573123,0.289,inactive
"SEC31B (SEC31 homolog B, COPII component)",SID329578241,-0.532,inactive
NLRP6 (NLR family pyrin domain containing 6),SID329583338,2.79,active
ATP11A (ATPase phospholipid transporting 11A),SID329577896,-0.757,inactive
CRYBG1 (crystallin beta-gamma domain containing 1),SID329572733,-0.991,inactive
TIMM44 (translocase of inner mitochondrial membrane 44),SID329577179,-0.157,inactive
LHB (luteinizing hormone subunit beta),SID329574296,0.0348,inactive
SLC25A12,SID329576190,-1.1,active
ATF4 (activating transcription factor 4),SID329572846,-3.43,active
GPKOW (G-patch domain and KOW motifs),SID329578538,-0.67,inactive
GSTM3 (glutathione S-transferase mu 3),SID329573882,-3.4,active
NREP (neuronal regeneration related protein),SID329576526,-0.618,inactive
NAPEPLD (N-acyl phosphatidylethanolamine phospholipase D),SID329583619,-0.807,inactive
SLC34A1,SID329575374,-1.58,active
SLC2A5,SID329575346,-1.1,active
"AGAP4 (ArfGAP with GTPase domain, ankyrin repeat and PH domain 4)",SID329582380,-0.0717,inactive
"TPR (translocated promoter region, nuclear basket protein)",SID329575708,-1.04,active
CCAR2 (cell cycle and apoptosis regulator 2),SID329580385,-1.42,active
ATP8B4 (ATPase phospholipid transporting 8B4 (putative)),SID329581065,2.09,active
BCL9 (BCL9 transcription coactivator),SID329572908,0.203,inactive
ZDHHC21 (zDHHC palmitoyltransferase 21),SID329584075,0.704,inactive
CNEP1R1 (CTD nuclear envelope phosphatase 1 regulatory subunit 1),SID329583732,-0.921,inactive
KRT83 (keratin 83),SID329574260,1.38,active
SPTSSB (serine palmitoyltransferase small subunit B),SID329583270,-0.641,inactive
PHC2 (polyhomeotic homolog 2),SID329573487,-0.621,inactive
FKBP15 (FKBP prolyl isomerase family member 15),SID329577930,-1.33,active
ACSM5 (acyl-CoA synthetase medium chain family member 5),SID329579507,2.79,active
MORC2 (MORC family CW-type zinc finger 2),SID329577700,-0.556,inactive
SCAMP3,SID329576944,0.523,inactive
SLC17A2,SID329577051,-1.46,active
TXNRD1 (thioredoxin reductase 1),SID329575744,-1.99,active
MEPE (matrix extracellular phosphoglycoprotein),SID329580111,-1.92,active
CBX4 (chromobox 4),SID329576162,0.846,inactive
LHFPL5 (LHFPL tetraspan subfamily member 5),SID329583630,1.35,active
C19orf33 (chromosome 19 open reading frame 33),SID329580549,-1.77,active
SLC46A2,SID329580399,-1.91,active
SOX5 (SRY-box transcription factor 5),SID329575441,1.06,active
ASCL2 (achaete-scute family bHLH transcription factor 2),SID329572835,-0.162,inactive
CCDC6 (coiled-coil domain containing 6),SID329575990,-1.07,active
DCTN2 (dynactin subunit 2),SID329577225,0.25,inactive
TOM1L2 (target of myb1 like 2 membrane trafficking protein),SID329582914,0.707,inactive
QPCT (glutaminyl-peptide cyclotransferase),SID329578164,1.57,active
ICOSLG (inducible T cell costimulator ligand),SID329577931,0.65,inactive
RDH12 (retinol dehydrogenase 12),SID329582881,-2.5,active
BCL2L1 (BCL2 like 1),SID329572903,-1.65,active
CD160 (CD160 molecule),SID329577547,-1.77,active
SYNGR1 (synaptogyrin 1),SID329576451,1.79,active
TM4SF1 (transmembrane 4 L six family member 1),SID329574351,-0.995,inactive
DCAF4 (DDB1 and CUL4 associated factor 4),SID329578311,0.384,inactive
AGBL1 (AGBL carboxypeptidase 1),SID329582468,0.498,inactive
ZBTB44 (zinc finger and BTB domain containing 44),SID329578642,-2.24,active
"TLE1 (TLE family member 1, transcriptional corepressor)",SID329575653,2,active
SELENOK (selenoprotein K),SID329580430,-0.24,inactive
PLCB3 (phospholipase C beta 3),SID329574853,-0.848,inactive
CMYA5 (cardiomyopathy associated 5),SID329583447,-0.183,inactive
PCDHA3 (protocadherin alpha 3),SID329579994,-2.43,active
IFITM2 (interferon induced transmembrane protein 2),SID329577256,-1.09,active
TRAPPC4 (trafficking protein particle complex subunit 4),SID329579056,0.0915,inactive

Reprinted from the entries so far, 16 entries:
gene,PubChem SID,z-score vs non-targeting control,activity call
FAM174A (family with sequence similarity 174 member A),SID329584143,-0.778,inactive
DET1 (DET1 partner of COP1 E3 ubiquitin ligase),SID329579551,-1.62,active
SERPINI2 (serpin family I member 2),SID329574829,-1.24,active
CDYL2 (chromodomain Y like 2),SID329582484,0.743,inactive
OGDH (oxoglutarate dehydrogenase),SID329574695,1.3,active
ZXDC (ZXD family zinc finger C),SID329580877,-1.41,active
HOMER3 (homer scaffold protein 3),SID329576602,1.28,active
OR6C68 (olfactory receptor family 6 subfamily C member 68),SID329584524,-0.417,inactive
DDX55 (DEAD-box helicase 55),SID329580353,0.511,inactive
PDE2A (phosphodiesterase 2A),SID329574774,1.86,active
"PCDHAC2 (protocadherin alpha subfamily C, 2)",SID329579984,1.12,active
ZNF585A (zinc finger protein 585A),SID329583382,-1.76,active
ZFYVE19 (zinc finger FYVE-type containing 19),SID329581781,-0.984,inactive
AARD (alanine and arginine rich domain containing protein),SID329584594,0.848,inactive
HIF1A (hypoxia inducible factor 1 subunit alpha),SID329573959,-1.16,active
CCNB3 (cyclin B3),SID329581852,-0.636,inactive
